Data as given in PubChem BioAssay AID1259414 (Drosophila RNAi Screening Center, 2018).

Purpose: 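Genome-wide screen for host control of endosymbiont load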 (primary screen)
Cell system: Drosophila JW18 cells infected with Wolbachia
Knock-down reagent: long dsRNA against Drosophila genes, 0.25 µg dsRNA per well of a 384-well plate
Duration: 5 days
Challenge: cells persistently infected with Wolbachia before knock-down; no added drug
Measurement: 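Imaged fluorescence in situ signal for Wolbachia 23S rRNA per DAPI-counted host cell, given as a robust z-score within each plate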
Direction: Wolbachia per cell robust z: higher = more Wolbachia per host cell than the plate typical
Hit rule: 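Active if absolute robust z reaches 1.5 in two or more of three replicates, leaving out multi- or no-target dsRNAs, genes unexpressed in JW18 and A1 wells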
The screen tested about 24,000 reagents; this is a random part of those that have a named target and a result. Over the whole deposit, about 1,210 (5%) were called active. 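Inactive calls also include excluded dsRNAs with several or no targets, genes unexpressed in JW18, and well A1, regardless of score.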 Reagents against one gene are numbered here.

Against Dlip1 (Dorsal interacting protein 1), the entry reads Wolbachia per cell robust z, rep 1 = -0.457; Wolbachia per cell robust z, rep 2 = -0.0573; Wolbachia per cell robust z, rep 3 = 0.226; inactive.
CG7685 #1 showed Wolbachia per cell robust z, rep 1 = 0.0387; Wolbachia per cell robust z, rep 2 = 0.0423; Wolbachia per cell robust z, rep 3 = 1.12; inactive.
For CG7685 #2 the deposit lists Wolbachia per cell robust z, rep 1 = 0.71; Wolbachia per cell robust z, rep 2 = -0.16; Wolbachia per cell robust z, rep 3 = -0.303; inactive.
After knock-down of wge (winged eye) #1, the record shows Wolbachia per cell robust z, rep 1 = -0.213; Wolbachia per cell robust z, rep 2 = 1.04; Wolbachia per cell robust z, rep 3 = -0.263; inactive.
wge (winged eye) #2 gave Wolbachia per cell robust z, rep 1 = -0.218; Wolbachia per cell robust z, rep 2 = 0.0149; Wolbachia per cell robust z, rep 3 = -1.31; inactive.
BBS1 (Bardet-Biedl syndrome 1) showed Wolbachia per cell robust z, rep 1 = -0.429; Wolbachia per cell robust z, rep 2 = 0.26; Wolbachia per cell robust z, rep 3 = 0.00259; inactive.
After knock-down of Tcs4 (Threonyl-carbamoyl synthesis 4) #1, the screen gave Wolbachia per cell robust z, rep 1 = -0.227; Wolbachia per cell robust z, rep 2 = 1.01; Wolbachia per cell robust z, rep 3 = -0.356; inactive.
Knock-down of Tcs4 (Threonyl-carbamoyl synthesis 4) #2 came out at: Wolbachia per cell robust z, rep 1 = -0.957; Wolbachia per cell robust z, rep 2 = -0.918; Wolbachia per cell robust z, rep 3 = -1.1; inactive.
CG6051 #1 scored Wolbachia per cell robust z, rep 1 = 0.662; Wolbachia per cell robust z, rep 2 = 0.112; Wolbachia per cell robust z, rep 3 = 0.573; inactive.
CG6051 #2 gave Wolbachia per cell robust z, rep 1 = -1.05; Wolbachia per cell robust z, rep 2 = -0.572; Wolbachia per cell robust z, rep 3 = -0.393; inactive.
For Coq3 (Coenzyme Q3), the entry reads Wolbachia per cell robust z, rep 1 = 0.055; Wolbachia per cell robust z, rep 2 = 0.823; Wolbachia per cell robust z, rep 3 = 1.22; inactive.
Depletion of Inx7 (Innexin 7) #1 resulted in: Wolbachia per cell robust z, rep 1 = 0.999; Wolbachia per cell robust z, rep 2 = 1.67; Wolbachia per cell robust z, rep 3 = 0.584; inactive.
Against Inx7 (Innexin 7) #2, the entry reads Wolbachia per cell robust z, rep 1 = -0.815; Wolbachia per cell robust z, rep 2 = 0.376; Wolbachia per cell robust z, rep 3 = -0.0574; inactive.
For Inx7 (Innexin 7) #3, the values are Wolbachia per cell robust z, rep 1 = -0.00518; Wolbachia per cell robust z, rep 2 = 0.398; Wolbachia per cell robust z, rep 3 = -0.427; inactive.
Against l(3)87Df (lethal (3) 87Df) the deposit lists Wolbachia per cell robust z, rep 1 = -0.101; Wolbachia per cell robust z, rep 2 = 0.457; Wolbachia per cell robust z, rep 3 = -5.65; inactive.
Against G9a, the values are Wolbachia per cell robust z, rep 1 = -3.99; Wolbachia per cell robust z, rep 2 = -1.61; Wolbachia per cell robust z, rep 3 = 0.469; active.
Against CG13471, the entry reads Wolbachia per cell robust z, rep 1 = 0.213; Wolbachia per cell robust z, rep 2 = -0.099; Wolbachia per cell robust z, rep 3 = -1.39; inactive.
After knock-down of Pms2 the results were Wolbachia per cell robust z, rep 1 = 0.278; Wolbachia per cell robust z, rep 2 = 0.986; Wolbachia per cell robust z, rep 3 = -0.202; inactive.
After knock-down of Mal-A7 (Maltase A7), the screen gave Wolbachia per cell robust z, rep 1 = 0.0669; Wolbachia per cell robust z, rep 2 = -0.104; Wolbachia per cell robust z, rep 3 = -3.53; inactive.
Against BOD1 (Biorientation Defective 1) #1, the entry reads Wolbachia per cell robust z, rep 1 = -5.48; Wolbachia per cell robust z, rep 2 = -3.25; Wolbachia per cell robust z, rep 3 = -3.3; inactive.
Depletion of BOD1 (Biorientation Defective 1) #2 gave: Wolbachia per cell robust z, rep 1 = -2.04; Wolbachia per cell robust z, rep 2 = -1.43; Wolbachia per cell robust z, rep 3 = -1.39; inactive.
Knock-down of CG14760 #1 gave: Wolbachia per cell robust z, rep 1 = -0.715; Wolbachia per cell robust z, rep 2 = -0.19; Wolbachia per cell robust z, rep 3 = 0.297; inactive.
CG14760 #2 gave Wolbachia per cell robust z, rep 1 = 1.84; Wolbachia per cell robust z, rep 2 = 0.652; Wolbachia per cell robust z, rep 3 = -5.09; inactive.
After knock-down of CG33090 #1, the screen gave Wolbachia per cell robust z, rep 1 = 0.316; Wolbachia per cell robust z, rep 2 = 0.559; Wolbachia per cell robust z, rep 3 = 0.204; inactive.
Depletion of CG33090 #2 gave: Wolbachia per cell robust z, rep 1 = 0.481; Wolbachia per cell robust z, rep 2 = 0.0993; Wolbachia per cell robust z, rep 3 = 0.0843; inactive.
Depletion of l(3)80Fg (lethal (3) 80Fg) #1 resulted in: Wolbachia per cell robust z, rep 1 = 0.178; Wolbachia per cell robust z, rep 2 = -0.0804; Wolbachia per cell robust z, rep 3 = 0.392; inactive.
Depletion of l(3)80Fg (lethal (3) 80Fg) #2 came out at: Wolbachia per cell robust z, rep 1 = 1.19; Wolbachia per cell robust z, rep 2 = -0.522; Wolbachia per cell robust z, rep 3 = -0.595; inactive.
l(3)80Fg (lethal (3) 80Fg) #3 gave Wolbachia per cell robust z, rep 1 = 0.774; Wolbachia per cell robust z, rep 2 = 0.624; Wolbachia per cell robust z, rep 3 = -0.674; inactive.
After knock-down of mRpL40 (mitochondrial ribosomal protein L40) #1, the record shows Wolbachia per cell robust z, rep 1 = 1.02; Wolbachia per cell robust z, rep 2 = -3.53; Wolbachia per cell robust z, rep 3 = 0.948; inactive.
For mRpL40 (mitochondrial ribosomal protein L40) #2, the entry reads Wolbachia per cell robust z, rep 1 = -0.104; Wolbachia per cell robust z, rep 2 = 0.36; Wolbachia per cell robust z, rep 3 = 0.503; inactive.

Called active, of those listed so far:
G9a → Wolbachia per cell robust z, rep 1 = -3.99; Wolbachia per cell robust z, rep 2 = -1.61; Wolbachia per cell robust z, rep 3 = 0.469; call = active
